Measured values from several laboratories, pooled; numbers as filed in NIAID ChemDB.

Shared fields: enzyme or target tests; organism: HIV-1; protein: Protease

Neighbouring rows are from separate reports.

smiles,read-out,strain,read by,result
CC(=O)OC1OC(Oc2c(-c3ccc(O)cc3)oc3cc(OC4O[C@@H](O)[C@H](O)[C@H](O)[C@H]4O)cc(O)c3c2=O)[C@H](O)[C@@H](O)[C@H]1OC(C)=O,IC50,,HPLC,100.1 µM
COC(=O)N[C@H](C(=O)N[C@@H](C)CCC[C@@H](CO)N(C(C)C)S(=O)(=O)c1ccc(N)cc1)C(c1ccccc1)c1ccccc1,IC50,,HPLC,0.000132 µM
Cc1ccc(S(=O)(=O)NC(N)=NCCC[C@H](NC(=O)N2c3ccccc3CCc3ccccc32)C(=O)O)cc1,IC50,,HPLC,220 µM
CC(C)C[C@@H](CC[C@@H](Cc1ccccc1)C(=O)N[C@H](C(=O)N[C@H](C(N)=O)C(C)C)C(C)C)NC(=O)[C@@H](NC(=O)[C@@H](N)C(C)C)C(C)C,IC50,,,>10 µM
COc1ccc(S(=O)(=O)NC(N)=NCCC[C@H](NC(=O)OCC2c3ccccc3-c3ccccc32)C(=O)O)cc1,IC50,,HPLC,40 µM
O=C1OC(C2OC(=O)c3cc(O)c(O)c(O)c3-c3c(cc(O)c(O)c3O)C(=O)OCC2O)C2OC(=O)C3C(=C(O)C(=O)C34Oc3cc(O)c5c(c3C24)OC(c2ccc(O)c(O)c2)C(O)C5)c2c1cc(O)c(O)c2O,IC50,,HPLC,67 µM
COC(=O)[C@@H](NC(=O)[C@@H](NC(=O)C1CCCC1P(=O)(O)[C@H](Cc1ccccc1)NC(=O)[C@H](C)NC(=O)[C@H](C)NC(=O)[C@@H](N)CO)C(C)C)C(C)C,Ki,,HPLC,4 µM
O=Cc1ccc(O)c(O)c1,IC50,,HPLC,27.5 µM
NC(=NCCC[C@H](NC(=O)OCC1c2ccccc2-c2ccccc21)C(=O)O)NS(=O)(=O)Cc1ccccc1,IC50,,HPLC,370 µM
COc1ccc(S(=O)(=O)N(CC(O)CN2C(=O)C(C)(CC(C)C)NC[C@@H]2Cc2ccccc2)CC2CCCC2)cc1,Ki,,,0.13 µM
COc1cc(C)c(S(=O)(=O)NC(N)=NCCC[C@H](NC(=O)OCC2c3ccccc3-c3ccccc32)C(=O)O)c(C)c1C,IC50,,HPLC,66 µM
O=c1oc(-c2ccccc2)cc(O)c1SCCCc1ccccc1,IC50,,,1.41 µM
CC(C)(C)NC(=O)c1ccccc1SC[C@H](O)[C@H](Cc1ccccc1)NC(=O)[C@@H](NC(=O)c1ccc2ccccc2n1)C(C)(C)C,IC50,IIIB,HPLC,>0.1 µM
CC(C)(C)NC(=O)[C@H]1N(C(=O)[C@@H](O)[C@H](Cc2ccccc2)NC(=O)[C@H](CSN)NC(=O)COc2cccc(-c3ccccc3)c2)CSC1(C)C,IC50,,,<0.05 µM
O=C(N[C@@H](Cc1ccccc1)[C@H](O)CN1CC=CCCC12C(=O)Nc1ccccc12)O[C@H]1CO[C@H]2OCC[C@H]21,Ki,,HPLC,>1000 µM
CC(C)(C)OC(=O)N[C@@H](Cc1ccccc1)[C@H](O)C(=O)N1CCC[C@H]1C(=O)N[C@@H](CCC(N)=O)C(=O)NCC1CCCCC1,IC50,,,>1000 µM
CC(C)[C@H](NC(=O)[C@H](CCCN=C(N)N)NC(=O)N[C@@H](Cc1ccccc1)C(=O)O)C(=O)N[C@H](CO)Cc1ccccc1,IC50,,HPLC,17.8 µM
O=c1c(O[C@@H]2O[C@H](CO)[C@H](O)[C@H](O)[C@H]2O)c(-c2ccc(O)c(O)c2)oc2cc(O)cc(O)c12,IC50,,,>100 µM
CCCCCCCCCCCCCCCC(=O)O,IC50,,HPLC,>300 µM
CC[C@H](C)C(NC(=O)CNCC(O)[C@H](Cc1ccccc1)NC(=O)OCc1ccccc1)C(=O)N[C@@H](Cc1ccccc1)C(=O)OC,IC50,,,>10 µM
COC(=O)[C@H](CCCN=C(N)NS(=O)(=O)c1ccc(C)cc1)NC(=O)OCC1c2ccccc2-c2ccccc21,IC50,,HPLC,8 µM
C=CCC1NC[C@H](Cc2ccccc2)N(CC(O)CN(CC2CCCC2)S(=O)(=O)c2ccc(OC)cc2)C1=O,Ki,,,>20 µM
O=c1oc(-c2ccccc2)cc(O)c1SCc1ccccc1,Ki,,,0.7 µM
CC(C)(C)NC(=O)[C@@H]1CCCN1C(=O)[C@@H](O)[C@H](CC1CCCCC1)NC(=O)[C@H](CS(C)(=O)=O)NC(=O)OCc1cccc2ccccc12,IC50,,,<5 µM
CC[C@H](C)[C@H](NC(=O)[C@H](Cc1ccccc1)NCC(O)[C@H](Cc1ccccc1)NC(=O)OCc1ccccc1)C(=O)N[C@@H](Cc1ccccc1)C(=O)OC,IC50,,,4.85 µM
NC(=O)NCCC[C@H](NC(=O)OCC1c2ccccc2-c2ccccc21)C(=O)O,IC50,,HPLC,30 µM
CC1(C)CC[C@]2(C(=O)O)CC[C@]3(C)C(=CCC4[C@@]5(C)CC[C@H](OC(=O)CCCC(=O)O)C(C)(C)C5CC[C@]43C)C2C1,IC50,,,4 µM
O=C(O)COc1ccc(-c2cc(O)c(SCCc3ccccc3)c(=O)o2)cc1,Ki,,,0.051 µM
CC[C@H](CC[C@@H](C)[C@H]1CC[C@H]2[C@@H]3CC=C4C[C@@H](O)CC[C@]4(C)[C@H]3CC[C@]12C)C(C)C,IC50,,,>100 µM
CC[C@H](C)[C@H](NC(=O)C[C@H](O)[C@H](Cc1ccccc1)NC(=O)OC(C)(C)C)C(=O)N[C@@H](Cc1ccccc1)C(=O)OC,IC50,,,<10 µM
C=C(C)[C@@H]1CC[C@]2(C(=O)O)CC[C@]3(C)[C@H](CC[C@@H]4[C@@]5(C)CC[C@H](OC(=O)C(=O)O)C(C)(C)C5CC[C@]43C)[C@@H]12,IC50,,,7 µM
CC(C)(C)OC(=O)N[C@@H](Cc1ccccc1)C(=O)N[C@@H](CO)C(=O)N[C@@H](Cc1ccccc1)[C@H](O)C(=O)NCC1CCCCC1,IC50,,,~1000 µM
Cc1c(C)c(S(=O)(=O)NC(N)=NCCC[C@H](NC(=O)OCC2c3ccccc3-c3ccccc32)C(=O)O)c(C)c2c1OC(C)(C)CC2,IC50,,HPLC,30 µM
CSC[C@H](NC(=O)COc1cccc2cccnc12)C(=O)N[C@@H](Cc1ccccc1)[C@H](O)C(=O)N1CSC(C)(C)[C@H]1C(=O)NC(C)(C)C,IC50,,,<0.05 µM
COc1ccc(S(=O)(=O)N(CC(O)CN2C(=O)C3(CCCCC3)NC[C@@H]2Cc2ccccc2)CC2CCCC2)cc1,Ki,,,0.0017 µM
C[C@@]12CCC[C@@](C)(C(=O)O)[C@H]1CC[C@@]13C[C@@H](CC[C@H]12)[C@](O)(CO)C3,IC50,,HPLC,>300 µM
C[C@H]1[C@H](C)CC[C@]2(C(=O)O)CC[C@]3(C)C(=CC[C@@H]4[C@@]5(C)CC[C@H](OC(=O)CCC(=O)O)C(C)(C)[C@@H]5CC[C@]43C)[C@H]12,IC50,,,6 µM
COc1ccc(O)c([C@H]2CC(=O)c3c(O)c(C)c(O)c(C)c3O2)c1,IC50,,HPLC,100.9 µM
C/C=C/c1ccc(OC2OC(CO)C(O)C(O)C2O)c(OC)c1,IC50,,,>100 µM
COC(=O)CC1NC[C@H](Cc2ccccc2)N(CC(O)CN(CC2CCCC2)S(=O)(=O)c2ccc(OC)cc2)C1=O,Ki,,,>20 µM
Cn1cc(C(=O)O)c(=O)c2cc(N)c(N3CCN(c4ccccn4)CC3)cc21,IC50,,fluorescence,71 µM
C=C(C)[C@@H]1CC[C@]2(C(=O)O)CC[C@]3(C)[C@H](CC[C@@H]4[C@@]5(C)CC[C@H](O)C(C)(C)[C@@H]5CC[C@]43C)[C@@H]12,IC50,,,9 µM

Again, the opening 2 rows:

smiles | read-out | strain | read by | result
CC(=O)OC1OC(Oc2c(-c3ccc(O)cc3)oc3cc(OC4O[C@@H](O)[C@H](O)[C@H](O)[C@H]4O)cc(O)c3c2=O)[C@H](O)[C@@H](O)[C@H]1OC(C)=O | IC50 |  | HPLC | 100.1 µM
COC(=O)N[C@H](C(=O)N[C@@H](C)CCC[C@@H](CO)N(C(C)C)S(=O)(=O)c1ccc(N)cc1)C(c1ccccc1)c1ccccc1 | IC50 |  | HPLC | 0.000132 µM

Blank or dashed fields: not listed here. ICn: concentration for n% inhibition.